# HIV-1 5' UTR: DMS reactivities by position

Source: Ye et al. 2022 (doi:10.1038/s41594-022-00746-2), supplementary data.

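Mutant RNA libraries with 1G, 2G or 3G starts, with or without cap, were folded at 37 °C for 30 min. High salt was 300 mM KCl and 5 mM MgCl2, low salt 40 mM KCl and 0.1 mM MgCl2; monomer and dimer were parted on a native gel. Gel slices were treated with 170 mM dimethyl sulfate for 15 min at 37 °C and read by mutational profiling against an ethanol control.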

The 5' region of HIV-1 NL4-3 RNA (positions 1-437):
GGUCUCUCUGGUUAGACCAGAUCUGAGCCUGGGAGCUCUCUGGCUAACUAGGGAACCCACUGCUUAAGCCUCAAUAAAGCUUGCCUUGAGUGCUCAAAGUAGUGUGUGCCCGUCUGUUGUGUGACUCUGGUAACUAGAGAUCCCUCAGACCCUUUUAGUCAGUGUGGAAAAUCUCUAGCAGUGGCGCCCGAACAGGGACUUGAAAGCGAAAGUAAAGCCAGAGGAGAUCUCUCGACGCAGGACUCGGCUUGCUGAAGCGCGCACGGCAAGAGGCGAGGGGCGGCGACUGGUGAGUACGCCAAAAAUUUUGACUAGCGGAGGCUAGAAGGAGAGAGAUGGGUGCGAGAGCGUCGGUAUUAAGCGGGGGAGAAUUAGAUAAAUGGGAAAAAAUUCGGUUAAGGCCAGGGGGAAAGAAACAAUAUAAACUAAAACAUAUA

Values are winsor-normalised DMS reactivities of A and C; higher means more reactive, usually unpaired. One numbering serves 1G, 2G and 3G. A position is written with its base.

For A19 (domain TAR) the result was 3G capped low-salt monomer 0.02; 1G uncapped high-salt monomer 0.04.
For A21 (domain TAR) the result was 3G capped low-salt monomer 0.53; 1G uncapped high-salt monomer 0.59.
For C23 (domain TAR) the result was 3G capped low-salt monomer 1.38; 1G uncapped high-salt monomer 1.35.
For A26 (domain TAR) the result was 3G capped low-salt monomer 0.06; 1G uncapped high-salt monomer 0.14.
For C28 (domain TAR) the result was 3G capped low-salt monomer 0.02; 1G uncapped high-salt monomer 0.04.
For C29 (domain TAR) the result was 3G capped low-salt monomer 0.09; 1G uncapped high-salt monomer 0.11.
For A34 (domain TAR) the result was 3G capped low-salt monomer 1.10; 1G uncapped high-salt monomer 1.14.
For C36 (domain TAR) the result was 3G capped low-salt monomer 0.02; 1G uncapped high-salt monomer 0.04.
For C38 (domain TAR) the result was 3G capped low-salt monomer 0.02; 1G uncapped high-salt monomer 0.04.
For C40 (domain TAR) the result was 3G capped low-salt monomer 0.02; 1G uncapped high-salt monomer 0.04.
For C44 (domain TAR) the result was 3G capped low-salt monomer 0.02; 1G uncapped high-salt monomer 0.04.
For A46 (domain TAR) the result was 3G capped low-salt monomer 0.02; 1G uncapped high-salt monomer 0.05.
For A47 (domain TAR) the result was 3G capped low-salt monomer 0.11; 1G uncapped high-salt monomer 0.18.
For C48 (domain TAR) the result was 3G capped low-salt monomer 0.02; 1G uncapped high-salt monomer 0.08.
For A50 (domain TAR) the result was 3G capped low-salt monomer 0.10; 1G uncapped high-salt monomer 0.20.
For A54 (domain TAR) the result was 3G capped low-salt monomer 0.11; 1G uncapped high-salt monomer 0.20.
For A55 (domain TAR) the result was 3G capped low-salt monomer 0.15; 1G uncapped high-salt monomer 0.53.
For C56 (domain TAR) the result was 3G capped low-salt monomer 0.02; 1G uncapped high-salt monomer 0.21.
For C57 (domain TAR) the result was 3G capped low-salt monomer 0.02; 1G uncapped high-salt monomer 0.78.
For C58 (domain PolyA) the result was 3G capped low-salt monomer 0.02; 1G uncapped high-salt monomer 0.19.
For A59 (domain PolyA) the result was 3G capped low-salt monomer 0.78; 1G uncapped high-salt monomer 0.46.
For C60 (domain PolyA) the result was 3G capped low-salt monomer 0.79; 1G uncapped high-salt monomer 0.26.
For C63 (domain PolyA) the result was 3G capped low-salt monomer 0.67; 1G uncapped high-salt monomer 0.13.
For A66 (domain PolyA) the result was 3G capped low-salt monomer 0.76; 1G uncapped high-salt monomer 0.96.
For A67 (domain PolyA) the result was 3G capped low-salt monomer 0.99; 1G uncapped high-salt monomer 0.69.
For C69 (domain PolyA) the result was 3G capped low-salt monomer 0.05; 1G uncapped high-salt monomer 0.04.
For C70 (domain PolyA) the result was 3G capped low-salt monomer 0.02; 1G uncapped high-salt monomer 0.04.
For C72 (domain PolyA) the result was 3G capped low-salt monomer 0.08; 1G uncapped high-salt monomer 0.11.
For A73 (domain PolyA) the result was 3G capped low-salt monomer 0.04; 1G uncapped high-salt monomer 0.04.
For A74 (domain PolyA) the result was 3G capped low-salt monomer 0.97; 1G uncapped high-salt monomer 0.79.
For A76 (domain PolyA) the result was 3G capped low-salt monomer 0.23; 1G uncapped high-salt monomer 0.29.
For A77 (domain PolyA) the result was 3G capped low-salt monomer 0.79; 1G uncapped high-salt monomer 0.82.
For A78 (domain PolyA) the result was 3G capped low-salt monomer 0.85; 1G uncapped high-salt monomer 0.75.
For C80 (domain PolyA) the result was 3G capped low-salt monomer 0.30; 1G uncapped high-salt monomer 0.38.
For C84 (domain PolyA) the result was 3G capped low-salt monomer 0.13; 1G uncapped high-salt monomer 0.56.
For C85 (domain PolyA) the result was 3G capped low-salt monomer 0.10; 1G uncapped high-salt monomer 0.33.
For A89 (domain PolyA) the result was 3G capped low-salt monomer 0.71; 1G uncapped high-salt monomer 0.57.
For C93 (domain PolyA) the result was 3G capped low-salt monomer 0.02; 1G uncapped high-salt monomer 0.04.
For C95 (domain PolyA) the result was 3G capped low-salt monomer 0.47; 1G uncapped high-salt monomer 0.58.
For A96 (domain PolyA) the result was 3G capped low-salt monomer 0.29; 1G uncapped high-salt monomer 0.27.

Extract of 4 entries:

{"position": "A50", "domain": "TAR", "3G capped low-salt monomer": 0.10, "1G uncapped high-salt monomer": 0.20}
{"position": "C58", "domain": "PolyA", "3G capped low-salt monomer": 0.02, "1G uncapped high-salt monomer": 0.19}
{"position": "A74", "domain": "PolyA", "3G capped low-salt monomer": 0.97, "1G uncapped high-salt monomer": 0.79}
{"position": "A54", "domain": "TAR", "3G capped low-salt monomer": 0.11, "1G uncapped high-salt monomer": 0.20}